Results of unrelated studies side by side (data: NIAID ChemDB).

Common to all: growth or infection tests; organism: HIV-1; read-out: EC90

Blank or dashed fields: not listed here. ECn is the concentration giving n% inhibition of infection, replication or growth. Rows are shuffled and stem from different studies. a–b is a range or a potency band.

{"smiles": "CSC[C@H]1O[C@@H](n2cnc3c(N)ncnc32)[C@H](O)[C@H]1O", "cells": "C8166", "read by": "syncytia", "value": ">190 µM"}
{"smiles": "Cc1cn([C@H]2CO[C@@H](CO[P@]3(=O)OCC[C@H](c4ccccc4)O3)O2)c(=O)[nH]c1=O", "cells": "PBMC", "read by": "RT activity", "strain": "LAI", "mutations": "RT-M184V", "value": "22.7 µM"}
{"smiles": "COc1nc(Cl)nc2c1ncn2[C@@H]1O[C@H](CO)[C@@H](O)[C@@]1(C)O", "read by": "ELISA", "strain": "LAI", "value": ">100 µM"}
{"smiles": "Cc1ccc(C2CC2)c(-c2cc(F)c3c(c2C)CCCO3)c1[C@H](OC1CC1)C(=O)O", "cells": "MT-4", "read by": "luminescence", "strain": "NL4-3", "value": "0.03 µM"}
{"smiles": "O=C1Nc2ccc(F)c(F)c2[C@@](C#CC2CC2)(C(F)(F)F)N1", "mutations": "RT-K103N", "value": "0.011 µM"}
{"smiles": "Cc1nc2c3ncn([C@@H]4O[C@H](CO)[C@@H](O)[C@@]4(C)O)c3nc(N)n2n1", "read by": "ELISA", "strain": "LAI", "value": ">100 µM"}
{"smiles": "O=C1c2ccccc2C(=O)N1CCCCN1C(=O)[C@H](Cc2ccc(O)cc2)n2cccc2-c2ccccc21", "cells": "MT-2", "read by": "cytopathic effect / XTT", "strain": "IIIB", "value": ">23 µg/mL"}
{"smiles": "N[C@@H](CC(=O)N[C@@H](CC(=O)O)C(=O)O)C(=O)O", "cells": "CEM/MOLT-4", "read by": "syncytia", "strain": "MN", "value": ">100 µg/mL"}
{"smiles": "COC(=O)[C@H](C)NP(=O)(OC[C@@H]1OC[C@H](n2cc(C)c(=O)[nH]c2=O)O1)Oc1ccc(C#N)cc1", "cells": "PBMC", "read by": "RT activity", "strain": "LAI", "mutations": "RT-M184V", "value": "1.6 µM"}
{"smiles": "NCC(NC(=O)c1ccc(-c2ccc(C(F)(F)F)c(F)c2)[nH]1)c1nc(CO)cs1", "cells": "PBMC", "read by": "p24 / ELISA", "strain": "NL4-3", "value": ">10 µM"}
{"smiles": "COc1ccc(S(=O)(=O)N(CC2CCCC2)C[C@@H](O)CN(CCc2ccccc2)C(=O)OC2COCOC2)cc1", "cells": "CEM", "read by": "p24", "strain": "IIIB", "value": "0.1 µM"}
{"smiles": "Cc1cn([C@H]2C=C[C@@H](CO)O2)c(=O)[nH]c1=O", "cells": "MT-4", "read by": "p24", "strain": "XM-T69SSS", "mutations": "RT-T69SSS L210W T215Y", "value": "2.7 µM"}
{"smiles": "COc1ccnc2[nH]cc(C(=O)C(=O)N3C4CCCC3CN(C(=O)c3ccccc3)C4)c12", "cells": "TZM-bl", "read by": "luciferase", "strain": "QH0692", "value": "57 µM"}
{"smiles": "Cc1ccc(C2CC2)c(-c2ccc3c(c2C)CCCO3)c1[C@H](OC(C)(C)C)C(=O)O", "cells": "MT-4", "read by": "luminescence", "strain": "NL4-3", "value": "0.0046 µM"}
{"smiles": "O=C(O)C[C@H]1C(=O)Nc2ccccc2-c2cccn21", "cells": "MT-2", "read by": "cytopathic effect / XTT", "strain": "IIIB", "value": ">50 µg/mL"}
{"smiles": "CC(C)(C)OC(=O)N1[C@H](CO)CC(F)(F)[C@@H]1n1ccc(=O)[nH]c1=O", "cells": "PBMC", "strain": "LAI", "value": ">100 µM"}
{"smiles": "C[C@@]1(O)[C@H](O)[C@@H](CO)O[C@H]1n1cnc2c(N)nc(-n3cc([Si](C)(C)C)nn3)nc21", "read by": "ELISA", "strain": "LAI", "value": ">100 µM"}
{"smiles": "O=C(O)c1cc(-n2cccc2)ccc1Cl", "cells": "PBMC/5.25M7", "read by": "luciferase / cell fusion", "strain": "92UG092 X4 CLADE A", "value": "31.58 µM"}
{"smiles": "O=C1Nc2ccc(F)c(F)c2[C@@](/C=C/C2CC2)(C(F)(F)F)N1", "cells": "MT-2", "read by": "plaque count / virus yield", "strain": "RF", "value": "0.0027 µM"}
{"smiles": "CC(C)(C)OC(=O)N1[C@H](CO)CC(F)(F)[C@@H]1n1cc(F)c(=O)[nH]c1=O", "cells": "PBMC", "strain": "LAI", "value": "90.8 µM"}
{"smiles": "Nc1ccn([C@H]2CC[C@@H](CO)O2)c(=O)n1", "cells": "MT-4", "read by": "MTT", "strain": "IIIB", "value": "0.632 µM"}
{"smiles": "CC(C)(C)OC(=O)N1[C@H](CO)CC(F)(F)[C@@H]1n1cnc2ncnc(N)c21", "cells": "PBMC", "strain": "LAI", "value": ">100 µM"}
{"smiles": "O=C(N[C@@H](Cc1ccccc1)[C@H](O)CN(CC1CCCC1)S(=O)(=O)c1ccc(F)cc1)O[C@@H]1CCOC1", "cells": "CEM", "read by": "p24", "strain": "IIIB", "value": "0.101–1 µM"}
{"smiles": "CCCCCCNc1ncnc2c1ncn2[C@H]1CC[C@@H](CO)O1", "cells": "C8166", "read by": "cytopathic effect / MTT / p24", "strain": "RF", "value": "100 µM"}
{"smiles": "CC(C)(C)C(=O)OCOP(=O)(CC[C@H]1O[C@@H](n2ccc(=O)[nH]c2=O)[C@](C)(F)[C@@H]1O)OCOC(=O)C(C)(C)C", "cells": "PBMC", "read by": "PCR", "strain": "LAI", "value": ">100 µM"}
{"smiles": "COCC(=O)N1CCC(c2cc(CCOc3ccccc3C(F)(F)F)[nH]n2)C1", "cells": "TZM-bl", "read by": "luciferase", "strain": "BaL", "value": "15.9 µM"}
{"smiles": "COc1ccc(S(=O)(=O)N(CC2CCCC2)C(=O)C(=O)C(=O)[C@@H](Cc2ccccc2)NC(=O)O[C@H]2CCOC2)cc1", "cells": "CEM", "read by": "p24", "strain": "IIIB", "value": "1 µM"}
{"smiles": "O=C1Nc2ccc(Cl)cc2[C@@](/C=C/C2CC2)(C(F)(F)F)N1", "mutations": "RT-P225H", "value": "<0.012 µM"}
{"smiles": "Cc1ccc(Nc2c([N+](=O)[O-])ncn2CC2=CC(=O)C(=O)CN2C)cc1", "cells": "MT-4", "read by": "MTT", "strain": "IIIB", "value": ">25.4 µM"}
{"smiles": "O=C1Nc2ccccc2-c2cccn2[C@H]1Cc1ccccc1", "cells": "MT-2", "read by": "cytopathic effect / XTT", "strain": "IIIB", "value": ">21 µg/mL"}
{"smiles": "C[C@@]1(O)[C@H](O)[C@@H](CO)O[C@H]1n1cnc2c(N)nc(N=[N+]=[N-])nc21", "read by": "ELISA", "strain": "LAI", "value": ">100 µM"}
{"smiles": "CN(C)c1ncnc2c1ncn2[C@H]1CC[C@@H](CO)O1", "cells": "C8166", "read by": "cytopathic effect / MTT / p24", "strain": "RF", "value": "20 µM"}
{"smiles": "CN1CC(=O)C(=O)C=C1Cn1cnc([N+](=O)[O-])c1Sc1ccccc1", "cells": "MT-4", "read by": "MTT", "strain": "IIIB", "value": ">23.6 µM"}
{"smiles": "CC(C)(C)OC(=O)N1[C@H](CO)CC(F)(F)[C@@H]1n1cnc2c(Cl)ncnc21", "cells": "PBMC", "strain": "LAI", "value": ">100 µM"}
{"smiles": "COC(=O)[C@H](C)NP(=O)(OC[C@@H]1OC[C@H](n2cc(C)c(=O)[nH]c2=O)O1)Oc1ccccc1Cl", "cells": "PBMC", "read by": "RT activity", "strain": "LAI", "mutations": "RT-M184V", "value": "2.6 µM"}
{"smiles": "COc1ccc(S(=O)(=O)N(CC(C)C)C[C@@H](O)CCN(CC2CCCC2)S(=O)(=O)CC2CCS(=O)(=O)CC2)cc1", "cells": "CEM", "read by": "p24", "strain": "IIIB", "value": "1 µM"}
{"smiles": "CC1(C)CC=C(c2cn(-c3nccc(C(=O)NC4CCC(N5CC6CCC(C5)O6)CC4)n3)c3ccc(F)c([C@H](OC(C)(C)C)C(=O)O)c23)CC1", "cells": "H9", "read by": "luminescence", "strain": "IIIB", "value": "0.0074 µM"}
{"smiles": "Cn1cc(C(=O)N2CCC(c3cc(CCOc4ccccc4C(F)(F)F)[nH]n3)C2)cn1", "cells": "TZM-bl", "read by": "luciferase", "strain": "BaL", "value": "8.41 µM"}
{"smiles": "Cc1cn([C@H]2CO[C@@H](CO[P@@]3(=O)OCC[C@@H](c4ccccc4)O3)O2)c(=O)[nH]c1=O", "cells": "PBMC", "read by": "RT activity", "strain": "LAI", "mutations": "RT-M184V", "value": "10.1 µM"}
{"smiles": "Nc1nc(=O)n([C@H]2C=C[C@@H](CO)O2)cc1F", "cells": "MT-4", "read by": "p24", "strain": "XM-ABC-resistant", "mutations": "RT-K65R L74V M184V Y115F", "value": "14 µM"}
{"smiles": "Cc1nnc(C(=O)NC(C)(C)c2nc(C(=O)NCc3ccc(F)cc3)c(O)c(=O)n2C)o1", "cells": "HEK293T", "read by": "p24 / ELISA", "strain": "LAI", "value": "0.002 µM"}
{"smiles": "C[C@@]1(O)[C@H](O)[C@@H](CO)O[C@H]1n1cnc2c(N)nc(Cl)nc21", "read by": "ELISA", "strain": "LAI", "value": ">100 µM"}
{"smiles": "CN1CC(=O)C(=O)C=C1Cn1cnc([N+](=O)[O-])c1Nc1ccc(Cl)cc1", "cells": "MT-4", "read by": "MTT", "strain": "IIIB", "value": ">250 µM"}
{"smiles": "CC(C)CN(CC(O)CNc1cc(C(C)(C)C)[nH]n1)S(=O)(=O)c1ccccc1", "cells": "CEM", "read by": "p24", "strain": "IIIB", "value": "1 µM"}
{"smiles": "CN1CC(=O)C(=O)C=C1Cn1cnc([N+](=O)[O-])c1Nc1cccc(Cl)c1", "cells": "MT-4", "read by": "MTT", "strain": "IIIB", "value": ">5.5 µM"}
{"smiles": "Cc1cc(C)cc(S(=O)(=O)c2c(C(=O)/C=C/C(N)=O)[nH]c3ccc(Cl)cc23)c1", "cells": "C8166", "read by": "cytopathic effect / MTT", "mutations": "RT-K103R", "value": ">100 µM"}
{"smiles": "CC(C)(C)NC(=O)[C@@H]1C[C@@H]2CCCC[C@@H]2CN1C[C@H](O)[C@@H](CSc1ccccc1)NC(=O)c1cccc2c1CCCN2", "cells": "CEM", "read by": "cytopathic effect / XTT", "strain": "SN 123", "value": "0.231 µM"}
{"smiles": "CCCCCCCCCCCCCCCCOCCCOP(=O)(N[C@H](C(=O)OC)C(C)C)OC[C@@H]1OC[C@H](n2cc(C)c(=O)[nH]c2=O)O1", "cells": "PBMC", "read by": "RT activity", "strain": "LAI", "mutations": "RT-M184V", "value": "13.6 µM"}
{"smiles": "CN1C(=O)[C@H](Cc2ccc(O)cc2)n2cccc2-c2ccccc21", "cells": "MT-2", "read by": "cytopathic effect / XTT", "strain": "IIIB", "value": ">5.2 µg/mL"}
{"smiles": "Cc1nc(N)nc2c1ncn2[C@@H]1O[C@H](CO)[C@@H](O)[C@@]1(C)O", "read by": "ELISA", "strain": "LAI", "value": ">100 µM"}
{"smiles": "Cc1cc(C)cc(S(=O)(=O)c2c(C(=O)NCC(=O)NN)[nH]c3ccc(Cl)cc23)c1", "cells": "MT-4", "read by": "cytopathic effect / MTT / p24", "strain": "IIIB", "value": "0.03 µM"}
{"smiles": "Cc1cc(C)cc(S(=O)(=O)c2c(C(=O)NCC(=O)NN)[nH]c3ccc(Cl)cc23)c1", "cells": "MT-4", "read by": "cytopathic effect / MTT", "strain": "IIIB", "value": "0.03 µM"}
{"smiles": "NC1=NC=NC2C1N=CN2[C@H]1C[C@@H](CCP(=O)(O)O)CO1", "cells": "MT-4", "read by": "MTT", "value": "80 µg/mL"}
{"smiles": "COc1ccc(S(=O)(=O)N(CC[C@H](O)CN(CC(C)C)S(=O)(=O)c2ccc(OC)cc2)CC2CCCC2)cc1", "cells": "CEM", "read by": "p24", "strain": "IIIB", "value": "0.1 µM"}
{"smiles": "Nc1nccc2c1ncn2[C@H]1CC[C@@H](CO)O1", "cells": "MT-4", "read by": "syncytia", "strain": "IIIB", "value": ">200 µM"}
{"smiles": "COc1ccnc2[nH]cc(C(=O)C(=O)N3C4CCC3CN(C(=O)c3ccccc3)C4)c12", "cells": "TZM-bl", "read by": "luciferase", "strain": "SF162", "value": "32 µM"}
{"smiles": "CC(C)(C)NC(=O)[C@@H]1CN(Cc2cccnc2)CCN1C[C@H](O)[C@@H](CSc1ccccc1)NC(=O)c1cccc2ncccc12", "cells": "CEM", "read by": "cytopathic effect / XTT", "strain": "SN 123", "value": "0.564 µM"}

Again, the opening 3 rows:

smiles,cells,read by,strain,mutations,value
CSC[C@H]1O[C@@H](n2cnc3c(N)ncnc32)[C@H](O)[C@H]1O,C8166,syncytia,,,>190 µM
Cc1cn([C@H]2CO[C@@H](CO[P@]3(=O)OCC[C@H](c4ccccc4)O3)O2)c(=O)[nH]c1=O,PBMC,RT activity,LAI,RT-M184V,22.7 µM
COc1nc(Cl)nc2c1ncn2[C@@H]1O[C@H](CO)[C@@H](O)[C@@]1(C)O,,ELISA,LAI,,>100 µM